Pooled drug test results. Numbers come from NIAID ChemDB, via PubChem.

Shared fields: growth or infection tests; species: HIV-1; cells: PBMC; measure: EC50

Rows are shuffled and stem from different studies.

smiles	strain	changes	read by	conditions	result
Cc1cn([C@H]2C[C@H](N=[N+]=[N-])[C@@H](CO)O2)c(=O)[nH]c1=O	Recombinant	RT-F116Y	p24	-	0.001 µM
c1cc(CN2CCCNCCNCCCNCC2)ccc1CN1CCCNCCNCCCNCC1	NL4-3 X4	-	antigen	-	0.003 µg/mL
O=c1[nH]cnc2c1ncn2[C@H]1CC[C@@H](CO)O1	BCF02	RT-A98G V106I Y181C	-	-	0.3 µM
CC(C)(C)NC(=O)[C@@H]1CN(Cc2cccnc2)CCN1C[C@@H](O)C[C@@H](Cc1ccccc1)C(=O)N[C@H]1c2ccccc2C[C@H]1O	Clinical isolate	PR-L10I I15V E35D N37E K45R I54V L63P A71V V82T L90M I93L C95F	p24	-	0.49 µM
O=C1N(Cc2ccc(CO)cc2)[C@H](Cc2ccccc2)[C@H](O)[C@@H](O)[C@@H](Cc2ccccc2)N1Cc1ccc(CO)cc1	H clinical isolate	-	p24	-	0.11 µM
Cc1c(O)cccc1C(=O)N[C@@H](CSc1ccccc1)[C@H](O)CN1C[C@H]2CCCC[C@H]2C[C@H]1C(=O)NC(C)(C)C	IIIB	-	p24	-	0.006 µM
CC(C)CN(C[C@@H](O)[C@H](Cc1ccccc1)NC(=O)O[C@H]1CCOC1)S(=O)(=O)c1ccc(N)cc1	Clinical isolate	PR-L10I I15V E35D N37E K45R I54V L63P A71V V82T L90M I93L C95F	p24	-	0.26 µM
CCO/N=C(\c1ccc(Br)cc1)C1CCN(C2(C)CCN(C(=O)c3c(C)cc[n+]([O-])c3C)CC2)CC1	JV1083 R5 CLADE G	-	p24	-	0.00245 µM
S=C(NCCc1cccs1)Nc1ccc(Br)cn1	R416-10 Clinical isolate NRTI-resistant	RT-M41L T215Y	p24	-	0.0011 µM
Cc1cn([C@H]2C[C@H](N=[N+]=[N-])[C@@H](CO)O2)c(=O)[nH]c1=O	9281 CLADE A CLADE A	-	p24	-	0.025 µM
COC(=O)[C@H](C)NP(=O)(OC[C@@H]1C=C[C@H](n2cc(C)c(=O)[nH]c2=O)O1)Oc1ccc(Br)cc1	X165-9 NRTI resistant	RT-K20R D67N K103N T215Y	p24	-	0.002 µM
CC(C)(C)NC(=O)[C@@H]1C[C@@H]2CCCC[C@@H]2CN1C[C@@H](O)[C@H](Cc1ccccc1)NC(=O)[C@H](CC(N)=O)NC(=O)c1ccc2ccccc2n1	BCF06	PR-L10I K20C M36I L63T I64V A71V	-	-	0.0138 µM
Cc1cn([C@H]2C[C@H](N=[N+]=[N-])[C@@H](CO)O2)c(=O)[nH]c1=O	G762-3	-	p24	-	0.02 µM
CC(C)c1nc(CN(C)C(=O)N[C@H](C(=O)N[C@@H](Cc2ccccc2)C[C@H](O)[C@H](Cc2ccccc2)NC(=O)OCc2cncs2)C(C)C)cs1	Ba-L Laboratory isolate	-	p24	-	0.038 µM
COC(=O)[C@H](C)NP(=O)(OC[C@@H]1C=C[C@H](n2cc(C)c(=O)[nH]c2=O)O1)Oc1ccc(Br)cc1	Y270-7 Clinical isolate ZDV-resistant	RT-M41W Y188L T215N	p24	-	0.009 µM
Cc1cn([C@H]2C[C@H](N=[N+]=[N-])[C@@H](CO)O2)c(=O)[nH]c1=O	7295-1 NRTI resistant recombinant	RT-D67N T69N K70R M184V T215F K219Q	RT activity	-	0.0008 µM
c1cc(CN2CCCNCCNCCCNCC2)ccc1CN1CCCNCCNCCCNCC1	SW26 CLADE C R5	-	p24	-	>0.5 µM
Cc1c(O)cccc1C(=O)N[C@@H](CSc1ccccc1)[C@H](O)CN1C[C@H]2CCCC[C@H]2C[C@H]1C(=O)NC(C)(C)C	Clinical isolate	PR-L10R N37D M46I I62V L63P A71V G73S V77I V82T L90M I93L	p24	-	>1 µM
Nc1ccn([C@H]2CC[C@@H](CO)O2)c(=O)n1	BCF03	RT-A98G Y181C	-	-	0.12 µM
Nc1ccn([C@H]2CC[C@@H](CO)O2)c(=O)n1	NL4-3 WT	-	p24	-	0.02 µM
CCc1c(C(=O)c2cc(C)cc(C)c2)n(CC2CC=CC2)c(=O)[nH]c1=O	CLADE A	-	cytopathic effect / XTT	clinical isolate	0.014 µM

Repeating the final 2 entries:

smiles	strain	changes	read by	conditions	result
Nc1ccn([C@H]2CC[C@@H](CO)O2)c(=O)n1	NL4-3 WT	-	p24	-	0.02 µM
CCc1c(C(=O)c2cc(C)cc(C)c2)n(CC2CC=CC2)c(=O)[nH]c1=O	CLADE A	-	cytopathic effect / XTT	clinical isolate	0.014 µM

ECn: concentration that inhibits the pathogen or its effect by n%. Blank or dashed fields: not listed here.